BindingDB's records for PubMed 40053382 (Sapienza University of Rome)

Legend:
[1] = Inhibition of HIV-1 Reverse transcriptase L100I/K103N double mutant
[2] = Inhibition of HIV-1 Reverse transcriptase K103N/Y181C double mutant
[3] = Inhibition of HIV-1 Reverse transcriptase K103N mutant

Cc1cc(C#N)cc(C)c1Oc1nc(Nc2ccc(C#N)cc2)nc(N)c1Br gave an IC50 [1] of 19 nM, an IC50 [2] of 4.3 nM and an IC50 [3] of 1.2 nM.
